# Experimental data taken from patent US9328138B2 (priority 2011, dated 2016).
# The chains behind the UniProt entries cited, without tags or fusion partners. Where a name states a change or a piece, a line headed by the entry shows the natural chain unless it says otherwise. Residues count along the entry.
# UniProt P26663, 1027-1657 R1181K limits assumed: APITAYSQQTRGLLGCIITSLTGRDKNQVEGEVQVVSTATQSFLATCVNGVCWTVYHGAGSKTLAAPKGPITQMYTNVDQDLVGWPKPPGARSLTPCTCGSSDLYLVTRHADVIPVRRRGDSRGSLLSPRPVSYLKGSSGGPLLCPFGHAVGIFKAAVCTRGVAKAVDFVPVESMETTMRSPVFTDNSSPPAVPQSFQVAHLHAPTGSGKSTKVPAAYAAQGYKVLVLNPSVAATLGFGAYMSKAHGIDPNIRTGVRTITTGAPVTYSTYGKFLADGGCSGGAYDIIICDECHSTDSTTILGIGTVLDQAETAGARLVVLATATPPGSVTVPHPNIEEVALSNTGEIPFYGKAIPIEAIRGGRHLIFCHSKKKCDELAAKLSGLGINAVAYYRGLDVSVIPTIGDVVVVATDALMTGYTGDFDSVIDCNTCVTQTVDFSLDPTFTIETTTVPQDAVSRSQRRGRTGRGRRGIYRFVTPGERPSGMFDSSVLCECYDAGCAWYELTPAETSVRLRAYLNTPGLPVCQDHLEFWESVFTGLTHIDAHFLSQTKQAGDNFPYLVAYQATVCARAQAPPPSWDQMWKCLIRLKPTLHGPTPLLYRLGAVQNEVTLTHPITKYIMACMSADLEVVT
# UniProt P26663, 1658-1711 partner limits assumed: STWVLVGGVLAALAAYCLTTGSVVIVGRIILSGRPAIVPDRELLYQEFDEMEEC
# UniProt Q81258, 1033-1663 limits assumed: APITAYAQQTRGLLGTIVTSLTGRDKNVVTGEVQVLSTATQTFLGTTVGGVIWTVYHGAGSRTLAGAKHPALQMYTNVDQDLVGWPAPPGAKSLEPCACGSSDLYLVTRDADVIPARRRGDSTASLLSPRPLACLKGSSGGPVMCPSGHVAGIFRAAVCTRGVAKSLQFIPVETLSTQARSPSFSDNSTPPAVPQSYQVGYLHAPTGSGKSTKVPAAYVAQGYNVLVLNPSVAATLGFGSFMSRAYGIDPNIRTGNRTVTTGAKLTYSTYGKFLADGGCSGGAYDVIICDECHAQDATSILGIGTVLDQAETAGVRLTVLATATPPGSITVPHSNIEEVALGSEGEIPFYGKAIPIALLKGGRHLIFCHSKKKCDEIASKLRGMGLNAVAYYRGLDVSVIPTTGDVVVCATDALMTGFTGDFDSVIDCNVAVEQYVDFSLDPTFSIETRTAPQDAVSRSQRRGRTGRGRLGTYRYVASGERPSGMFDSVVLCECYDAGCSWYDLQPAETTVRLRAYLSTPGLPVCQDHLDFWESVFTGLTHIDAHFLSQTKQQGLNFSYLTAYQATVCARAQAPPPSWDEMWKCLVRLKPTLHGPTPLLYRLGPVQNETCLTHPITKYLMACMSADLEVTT
# UniProt Q81258, 1664-1717 partner limits assumed: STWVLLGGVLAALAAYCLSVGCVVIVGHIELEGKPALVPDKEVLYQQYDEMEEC
# Read-outs that look alike come from different tables or passages of the source. The structures given here were assigned with low confidence; some may be wrong.
# Key:
# [1] = target: HCV genotype 1b (BK) NS3 modified enzyme with a R155K mutation (Hepatitis C virus genotype 1b, UniProt P26663, R1181K); assay: HCV NS3 protease time-resolved fluorescence (TRF) assay, genotype 1b R155K; assay type: biochemical; settings: read-out: Ki 1b R155K, tested form: K salt
# Protocol: (§1) The HCV NS3 protease inhibitory activity of the present compounds may be tested using assays known in the art. One such assay is HCV NS3 protease time-resolved fluorescence (TRF) assay as described below and in International Patent Application Publication No. WO2006/102087. Other examples of such assays are described in e.g., International Patent Application Publication No. WO2005/046712. The assay is performed in a final volume of 100 μl in assay buffer containing 50 mM HEPES, pH 7.5, 150 mM NaCl, 15% glycerol, 0.15% Triton X-100, 10 mM DTT, and 0.1% PEG 8000. NS3 protease is pre-incubated with various concentrations of inhibitors in DMSO for 30 minutes. […] Product fluorescence is detected using either a VICTOR V2 or FUSION fluorophotometer (Perkin Elmer Life and Analytical Sciences) with excitation at 340 nm and emission at 615 nm with a 400 μs delay. […]
# (§2) The HCV NS3 protease inhibitory activity was measured using the protease time-resolved fluorescence (TRF) assay as described below and in International Patent Application Publication No. WO 2006/102087. […]
# (§3) The assay was performed in a final volume of 50 μl in assay buffer containing 50 mM HEPES, pH 7.5, 150 mM NaCl, 15% glycerol, 0.15% TRITON X-100, 10 mM DTT, and 0.1% PEG 8000. […] Product fluorescence is detected using an Envision plate reader (Perkin Elmer) with excitation at 340 nm and emission at 615 nm with a 400 μs delay. […]
# [2] = target: HCV NS3 protease genotype 3a (3A-1) (Hepatitis C virus genotype 3a, UniProt Q81258); assay: HCV NS3 protease time-resolved fluorescence (TRF) assay, genotype 3a; assay type: biochemical; settings: read-out: Ki 3a, tested form: K salt
# Protocol: as §1, §2, §3
smiles,measurement,setting,value
C=C[C@@H]1C[C@]1(NC(=O)[C@@H]1C[C@@H]2CN1C(=O)[C@H](C1CCCCC1)NC(=O)O[C@@H]1C[C@H]1CCCCCc1c(nc3ccccc3c1O[C@H]1CCN(C)C[C@H]1F)O2)C(=O)NS(=O)(=O)C1(C)CC1,Ki,[1]; first of two values printed in the cell (not explained),0.015 nM
same,Ki,[1]; second of two values printed in the cell (not explained),0.046 nM
same,Ki,[2],2.27 nM
